{"source": "patent US20120107903A1", "about": "(priority 2010, published 2012)", "target": "Ralstonia solanacearum IPO1609 transmembrane dehydrogenase (SEQ ID NO:10), variant QYY, S327Q/S366Y/A473Y (Ralstonia solanacearum, UniProt A0ABF7REW7, A473Y/S327Q/S366Y)", "settings": "crude enzyme, DCIP 0.06 mM, PMS 0.6 mM", "note": "Some compounds may have been tested in ways that are not shown here."}
{"smiles": "OC[C@H]1OC(O)[C@H](O)[C@@H](O)[C@@H]1O", "note": "(stereo partly shown) [Glucose, glucose]", "values": [{"measurement": "Vmax (Glc)", "result": 1.55, "unit": "U/mL"}]}
